Key:
[1] = biological target: Neuronal acetylcholine receptor subunit alpha-7 (Homo sapiens, UniProt P36544)
[2] = biological target: Nicotinic acetylcholine receptor alpha9/alpha10 (Rattus norvegicus, UniProt P43144+Q9JLB5)
[3] = biological target: Neuronal acetylcholine receptor; alpha9/alpha10 (Homo sapiens, UniProt Q9UGM1+Q9GZZ6)
[4] = biological target: Neuronal acetylcholine receptor; alpha2/beta2 (Rattus norvegicus, UniProt P12389+P12390)
[5] = biological target: Neuronal acetylcholine receptor; alpha3/beta2 (Rattus norvegicus, UniProt P04757+P12390)
[6] = biological target: Neuronal acetylcholine receptor subunit alpha-7 (Rattus norvegicus, UniProt Q05941)
[7] = biological target: Neuronal acetylcholine receptor; alpha3/beta4 (Rattus norvegicus, UniProt P04757+P12392)
[8] = biological target: Sodium channel protein type 3 subunit alpha (Homo sapiens, UniProt Q9NY46)

The chains behind the UniProt entries cited, without tags or fusion partners. Residues count along the entry.
UniProt P36544, 23-502 limits assumed: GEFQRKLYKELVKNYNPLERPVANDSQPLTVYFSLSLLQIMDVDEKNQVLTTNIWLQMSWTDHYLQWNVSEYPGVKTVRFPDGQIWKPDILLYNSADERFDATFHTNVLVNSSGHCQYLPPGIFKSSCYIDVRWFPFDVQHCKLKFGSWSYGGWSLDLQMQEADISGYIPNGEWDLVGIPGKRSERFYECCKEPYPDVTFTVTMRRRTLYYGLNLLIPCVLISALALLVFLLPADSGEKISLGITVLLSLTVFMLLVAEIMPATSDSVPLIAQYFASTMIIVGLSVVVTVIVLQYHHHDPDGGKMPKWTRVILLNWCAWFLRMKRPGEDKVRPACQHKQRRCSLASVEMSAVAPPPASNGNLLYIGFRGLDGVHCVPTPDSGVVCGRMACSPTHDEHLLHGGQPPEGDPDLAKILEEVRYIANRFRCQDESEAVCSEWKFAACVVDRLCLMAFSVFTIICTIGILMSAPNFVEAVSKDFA
UniProt P43144, 26-479 limits assumed: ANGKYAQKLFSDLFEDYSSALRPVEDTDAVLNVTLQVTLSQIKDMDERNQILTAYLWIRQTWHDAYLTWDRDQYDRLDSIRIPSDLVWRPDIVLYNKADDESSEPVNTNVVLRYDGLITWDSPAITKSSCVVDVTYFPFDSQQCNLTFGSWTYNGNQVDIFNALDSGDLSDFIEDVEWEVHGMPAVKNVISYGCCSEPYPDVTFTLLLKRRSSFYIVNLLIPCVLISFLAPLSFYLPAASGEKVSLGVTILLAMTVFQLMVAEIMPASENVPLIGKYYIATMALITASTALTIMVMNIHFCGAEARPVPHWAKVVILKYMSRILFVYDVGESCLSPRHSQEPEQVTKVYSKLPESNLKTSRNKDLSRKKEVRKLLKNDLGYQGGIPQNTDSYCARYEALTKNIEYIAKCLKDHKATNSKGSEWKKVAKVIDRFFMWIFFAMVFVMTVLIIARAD
UniProt Q9JLB5, 25-447 limits assumed: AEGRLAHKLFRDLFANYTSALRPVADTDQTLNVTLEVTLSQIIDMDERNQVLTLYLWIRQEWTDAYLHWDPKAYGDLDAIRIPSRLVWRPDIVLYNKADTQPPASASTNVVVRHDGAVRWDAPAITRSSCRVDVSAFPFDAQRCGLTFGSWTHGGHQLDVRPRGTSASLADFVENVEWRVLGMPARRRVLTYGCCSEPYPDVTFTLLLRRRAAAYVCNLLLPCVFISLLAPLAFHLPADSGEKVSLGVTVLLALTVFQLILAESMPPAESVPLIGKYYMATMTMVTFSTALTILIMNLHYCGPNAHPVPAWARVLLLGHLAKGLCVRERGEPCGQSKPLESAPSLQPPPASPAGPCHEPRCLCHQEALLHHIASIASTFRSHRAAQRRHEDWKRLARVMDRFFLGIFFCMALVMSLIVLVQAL
UniProt Q9UGM1, 23-479 limits assumed: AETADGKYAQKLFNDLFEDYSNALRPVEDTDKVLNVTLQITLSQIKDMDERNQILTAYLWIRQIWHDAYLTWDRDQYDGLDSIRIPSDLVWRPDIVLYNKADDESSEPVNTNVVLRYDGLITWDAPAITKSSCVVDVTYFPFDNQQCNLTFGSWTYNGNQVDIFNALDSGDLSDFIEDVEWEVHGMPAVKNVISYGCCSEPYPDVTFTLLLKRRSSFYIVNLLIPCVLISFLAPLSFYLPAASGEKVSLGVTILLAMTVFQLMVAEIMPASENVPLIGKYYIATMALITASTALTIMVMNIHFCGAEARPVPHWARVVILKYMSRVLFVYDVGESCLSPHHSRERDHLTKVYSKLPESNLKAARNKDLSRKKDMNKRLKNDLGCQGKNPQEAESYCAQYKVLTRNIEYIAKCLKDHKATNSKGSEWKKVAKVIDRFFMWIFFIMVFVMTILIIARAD
UniProt Q9GZZ6, 25-450 limits assumed: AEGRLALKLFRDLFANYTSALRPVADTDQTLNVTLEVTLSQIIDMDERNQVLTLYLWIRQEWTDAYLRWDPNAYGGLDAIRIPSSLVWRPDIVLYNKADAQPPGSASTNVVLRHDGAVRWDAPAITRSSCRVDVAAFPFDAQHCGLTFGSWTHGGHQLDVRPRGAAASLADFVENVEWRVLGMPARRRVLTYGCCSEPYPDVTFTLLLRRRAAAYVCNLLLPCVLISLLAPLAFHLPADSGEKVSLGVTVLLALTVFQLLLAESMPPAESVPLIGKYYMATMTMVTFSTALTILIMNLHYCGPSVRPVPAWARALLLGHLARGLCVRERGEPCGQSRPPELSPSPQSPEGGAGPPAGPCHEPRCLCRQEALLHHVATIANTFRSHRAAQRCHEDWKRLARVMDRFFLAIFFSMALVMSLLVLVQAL
UniProt P12389, 28-511 limits assumed: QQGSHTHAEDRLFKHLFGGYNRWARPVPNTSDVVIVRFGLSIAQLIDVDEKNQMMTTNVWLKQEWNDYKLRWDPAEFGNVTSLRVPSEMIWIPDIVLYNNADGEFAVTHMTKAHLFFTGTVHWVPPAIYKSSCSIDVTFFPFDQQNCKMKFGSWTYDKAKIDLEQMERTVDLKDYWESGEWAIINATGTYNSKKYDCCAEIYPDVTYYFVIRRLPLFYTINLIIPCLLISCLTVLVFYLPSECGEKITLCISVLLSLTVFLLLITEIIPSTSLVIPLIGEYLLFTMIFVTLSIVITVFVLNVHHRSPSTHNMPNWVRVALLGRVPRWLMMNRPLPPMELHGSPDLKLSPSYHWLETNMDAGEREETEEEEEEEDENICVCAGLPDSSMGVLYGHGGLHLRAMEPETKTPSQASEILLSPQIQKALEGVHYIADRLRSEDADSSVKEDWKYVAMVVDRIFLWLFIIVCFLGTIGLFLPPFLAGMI
UniProt P04757, 26-499 limits assumed: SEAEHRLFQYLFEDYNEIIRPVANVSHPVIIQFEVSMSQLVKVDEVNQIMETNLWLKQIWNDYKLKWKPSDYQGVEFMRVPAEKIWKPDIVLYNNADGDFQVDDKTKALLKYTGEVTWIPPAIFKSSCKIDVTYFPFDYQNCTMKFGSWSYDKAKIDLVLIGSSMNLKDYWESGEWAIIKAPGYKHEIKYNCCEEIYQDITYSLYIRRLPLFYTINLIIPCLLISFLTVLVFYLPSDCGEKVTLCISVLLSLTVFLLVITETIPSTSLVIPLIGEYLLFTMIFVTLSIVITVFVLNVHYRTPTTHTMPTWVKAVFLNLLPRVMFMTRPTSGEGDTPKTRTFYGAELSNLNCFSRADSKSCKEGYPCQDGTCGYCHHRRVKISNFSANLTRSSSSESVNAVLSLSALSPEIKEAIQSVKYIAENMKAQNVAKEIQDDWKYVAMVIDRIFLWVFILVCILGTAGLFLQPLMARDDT
UniProt Q05941, 23-502 limits assumed: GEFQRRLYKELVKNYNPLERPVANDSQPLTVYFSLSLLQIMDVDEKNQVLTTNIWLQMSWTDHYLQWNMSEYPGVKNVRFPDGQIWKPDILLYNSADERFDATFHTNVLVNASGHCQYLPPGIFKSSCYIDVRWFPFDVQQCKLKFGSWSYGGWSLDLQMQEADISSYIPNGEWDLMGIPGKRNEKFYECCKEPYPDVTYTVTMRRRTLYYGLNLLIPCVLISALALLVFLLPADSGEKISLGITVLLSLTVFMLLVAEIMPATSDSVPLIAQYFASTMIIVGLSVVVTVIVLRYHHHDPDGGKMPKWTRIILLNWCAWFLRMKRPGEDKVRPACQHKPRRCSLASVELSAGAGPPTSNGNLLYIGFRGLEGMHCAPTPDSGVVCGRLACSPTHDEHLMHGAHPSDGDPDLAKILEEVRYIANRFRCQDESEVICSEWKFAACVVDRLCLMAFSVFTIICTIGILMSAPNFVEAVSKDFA
UniProt P12392, 21-495 limits assumed: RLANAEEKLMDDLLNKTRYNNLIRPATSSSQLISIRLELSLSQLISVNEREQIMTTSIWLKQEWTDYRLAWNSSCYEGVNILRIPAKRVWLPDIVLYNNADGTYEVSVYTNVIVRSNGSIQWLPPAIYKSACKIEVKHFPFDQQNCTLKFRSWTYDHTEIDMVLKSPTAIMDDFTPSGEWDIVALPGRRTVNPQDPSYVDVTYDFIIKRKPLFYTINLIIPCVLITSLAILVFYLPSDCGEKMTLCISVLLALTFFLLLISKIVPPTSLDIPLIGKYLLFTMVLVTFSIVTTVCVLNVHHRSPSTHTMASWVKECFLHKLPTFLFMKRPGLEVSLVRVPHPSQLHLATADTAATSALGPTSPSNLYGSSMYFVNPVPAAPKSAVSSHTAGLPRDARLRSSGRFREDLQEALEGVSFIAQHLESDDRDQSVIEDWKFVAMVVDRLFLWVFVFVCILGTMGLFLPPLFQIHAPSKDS
UniProt Q9NY46, whole entry, looked up: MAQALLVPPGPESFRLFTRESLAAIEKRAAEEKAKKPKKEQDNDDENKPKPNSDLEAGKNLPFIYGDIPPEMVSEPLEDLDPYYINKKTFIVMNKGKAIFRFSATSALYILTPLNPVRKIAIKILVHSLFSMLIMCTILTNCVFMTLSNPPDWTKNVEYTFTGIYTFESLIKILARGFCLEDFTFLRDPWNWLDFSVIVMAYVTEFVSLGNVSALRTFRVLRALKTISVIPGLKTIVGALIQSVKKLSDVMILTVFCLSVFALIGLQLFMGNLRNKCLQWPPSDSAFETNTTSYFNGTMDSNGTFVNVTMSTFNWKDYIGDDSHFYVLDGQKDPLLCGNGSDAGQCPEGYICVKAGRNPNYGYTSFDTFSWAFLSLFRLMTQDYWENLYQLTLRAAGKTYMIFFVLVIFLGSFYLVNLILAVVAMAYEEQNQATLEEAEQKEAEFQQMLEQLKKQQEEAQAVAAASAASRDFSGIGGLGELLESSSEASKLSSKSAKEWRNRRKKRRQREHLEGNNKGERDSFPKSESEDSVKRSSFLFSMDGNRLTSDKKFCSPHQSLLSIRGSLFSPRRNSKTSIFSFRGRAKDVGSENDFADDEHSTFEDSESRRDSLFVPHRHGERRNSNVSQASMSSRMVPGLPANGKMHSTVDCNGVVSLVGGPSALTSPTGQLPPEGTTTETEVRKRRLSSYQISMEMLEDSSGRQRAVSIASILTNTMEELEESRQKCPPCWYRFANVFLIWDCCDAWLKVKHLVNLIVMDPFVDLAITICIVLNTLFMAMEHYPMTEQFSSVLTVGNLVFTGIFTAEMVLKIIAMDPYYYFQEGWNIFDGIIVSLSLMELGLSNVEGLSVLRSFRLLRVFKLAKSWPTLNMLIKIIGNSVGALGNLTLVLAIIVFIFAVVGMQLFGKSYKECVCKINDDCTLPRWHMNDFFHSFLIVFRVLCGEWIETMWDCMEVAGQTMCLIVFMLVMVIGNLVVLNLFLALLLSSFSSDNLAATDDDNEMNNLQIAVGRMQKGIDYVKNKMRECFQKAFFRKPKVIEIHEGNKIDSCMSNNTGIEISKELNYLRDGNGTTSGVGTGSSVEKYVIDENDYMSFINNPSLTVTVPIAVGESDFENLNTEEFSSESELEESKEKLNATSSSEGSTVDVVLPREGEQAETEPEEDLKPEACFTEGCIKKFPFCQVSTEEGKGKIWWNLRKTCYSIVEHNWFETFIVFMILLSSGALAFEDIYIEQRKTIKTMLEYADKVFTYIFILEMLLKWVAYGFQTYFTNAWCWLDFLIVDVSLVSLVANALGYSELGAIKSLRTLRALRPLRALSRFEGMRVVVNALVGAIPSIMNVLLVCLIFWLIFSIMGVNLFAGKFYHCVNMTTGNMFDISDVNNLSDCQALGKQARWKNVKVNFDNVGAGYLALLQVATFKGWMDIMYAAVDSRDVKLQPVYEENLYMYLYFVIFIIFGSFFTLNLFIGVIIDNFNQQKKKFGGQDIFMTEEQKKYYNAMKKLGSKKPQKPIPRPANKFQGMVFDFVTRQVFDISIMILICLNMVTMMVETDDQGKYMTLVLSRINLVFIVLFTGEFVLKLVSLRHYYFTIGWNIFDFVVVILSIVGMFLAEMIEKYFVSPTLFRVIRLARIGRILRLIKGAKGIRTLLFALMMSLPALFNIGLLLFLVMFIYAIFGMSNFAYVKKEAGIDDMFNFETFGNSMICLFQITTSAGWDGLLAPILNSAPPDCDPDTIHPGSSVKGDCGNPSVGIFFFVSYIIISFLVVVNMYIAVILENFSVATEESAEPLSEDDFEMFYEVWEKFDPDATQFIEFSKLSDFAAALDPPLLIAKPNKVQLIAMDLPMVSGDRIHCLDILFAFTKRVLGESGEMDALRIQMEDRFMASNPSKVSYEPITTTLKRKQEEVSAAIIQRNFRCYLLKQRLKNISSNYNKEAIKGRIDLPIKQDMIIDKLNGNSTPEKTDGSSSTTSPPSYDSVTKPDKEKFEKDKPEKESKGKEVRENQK

`C[C@@H]1NC(=O)[C@@H]2CSSC[C@H](NC(=O)CN)C(=O)N[C@@H](CSSC[C@@H](C(N)=O)NC(=O)[C@H](CCCNC(=N)N)NC(=O)[C@H](Cc3c[nH]c4ccccc34)NC1=O)C(=O)N[C@@H](CO)C(=O)N[C@@H](CC(=O)O)C(=O)N1CCC[C@H]1C(=O)N[C@@H](CCCNC(=N)N)C(=O)N2` gave an IC50 [1] of 0.497 µM.

For `CC[C@H](C)[C@H](NC(=O)[C@H](CCCNC(=N)N)NC(=O)[C@H](CCCNC(=N)N)NC(=O)[C@H](CO)NC(=O)[C@H](Cc1ccc(O)cc1)NC(=O)[C@H](CCCNC(=N)N)NC(=O)[C@H](CCCNC(=N)N)NC(=O)[C@H](CCCNC(=N)N)NC(=O)[C@H](CCCNC(=N)N)NC(=O)[C@H](CC(=O)O)NC(=O)[C@H](Cc1ccc(O)cc1)NC(=O)[C@@H]1CCCN1C(=O)[C@H](CO)NC(=O)[C@H](CCCNC(=N)N)NC(=O)[C@H](C)NC(=O)[C@H](Cc1ccc(O)cc1)NC(=O)[C@H](CCCNC(=N)N)NC(=O)CNC(=O)[C@H](CO)NC(=O)[C@H](CO)NC(=O)[C@H](CCCNC(=N)N)NC(=O)[C@H](C)NC(=O)[C@@H](N)[C@@H](C)O)C(=O)N[C@H](C(=O)N[C@@H](CC(=O)O)C(=O)N[C@@H](C)C(=O)N[C@@H](CO)C(=O)N[C@H](C(=O)O)C(C)C)[C@@H](C)O`, the IC50 [2] was 0.0061 µM, the IC50 [3] was 0.033 µM and the IC50 [4] was 4.36 µM. For the same compound, the IC50 [5] was 2.83 µM, the IC50 [6] was 1.27 µM and the IC50 [7] was 8.35 µM.

In the case of `CC(C)[C@H](N)C(=O)NCC(=O)N[C@@H](CCC(=O)O)C(=O)N[C@@H](CCCNC(=N)N)C(=O)N[C@H]1CSSC[C@@H]2NC(=O)[C@H](Cc3c[nH]c4ccccc34)NC(=O)[C@H](CCCNC(=N)N)NC(=O)CNC(=O)[C@H](CSSC[C@@H](C(N)=O)NC(=O)[C@H](C)NC(=O)[C@H](CCCNC(=N)N)NC(=O)[C@H](CO)NC(=O)[C@H](Cc3cnc[nH]3)NC(=O)[C@H](CC(=O)O)NC(=O)[C@H](CCCNC(=N)N)NC2=O)NC(=O)CNC(=O)[C@H](CCCNC(=N)N)NC(=O)[C@H](CCCCN)NC(=O)CNC(=O)[C@H](CC(N)=O)NC(=O)[C@H](CCCCN)NC(=O)[C@H](C)NC1=O`, the IC50 [8] is reported as 0.26 µM.

For `CC(C)[C@H](N)C(=O)NCC(=O)N[C@@H](CCC(=O)O)C(=O)N[C@@H](CCCNC(=N)N)C(=O)N[C@H]1CSSC[C@@H]2NC(=O)[C@H](Cc3c[nH]c4ccccc34)NC(=O)[C@H](CCCNC(=N)N)NC(=O)CNC(=O)[C@H](C)NC(=O)CNC(=O)[C@H](CCCNC(=N)N)NC(=O)[C@H](CCCCN)NC(=O)CNC(=O)[C@H](CC(N)=O)NC(=O)[C@H](CCCCN)NC(=O)[C@H](CSSC[C@@H](C(=O)N[C@@H](C)C(N)=O)NC(=O)[C@H](CCCNC(=N)N)NC(=O)[C@H](CO)NC(=O)[C@H](Cc3cnc[nH]3)NC(=O)[C@H](CC(=O)O)NC(=O)[C@H](CCCNC(=N)N)NC2=O)NC1=O`, the IC50 [8] was 0.11 µM.

Compound `CC[C@H](C)[C@H](NC(=O)[C@H](CCCNC(=N)N)NC(=O)[C@H](CCCNC(=N)N)NC(=O)[C@H](CO)NC(=O)[C@H](Cc1ccc(O)cc1)NC(=O)[C@H](CCCNC(=N)N)NC(=O)[C@H](CCCNC(=N)N)NC(=O)[C@H](CCCNC(=N)N)NC(=O)[C@H](CCCNC(=N)N)NC(=O)[C@H](CC(=O)O)NC(=O)[C@H](Cc1ccc(O)cc1)NC(=O)[C@@H]1CCCN1C(=O)[C@H](CO)NC(=O)[C@H](CCCNC(=N)N)NC(=O)[C@@H]1CSSC[C@H](NC(=O)[C@@H](N)[C@@H](C)O)C(=O)N[C@@H](CCCNC(=N)N)C(=O)N[C@@H](CO)C(=O)N[C@@H](CO)C(=O)NCC(=O)N[C@@H](CCCNC(=N)N)C(=O)N[C@@H](Cc2ccc(O)cc2)C(=O)N1)C(=O)N[C@H](C(=O)N[C@@H](CC(=O)O)C(=O)N[C@@H](C)C(=O)N[C@@H](CO)C(=O)N[C@H](C(=O)O)C(C)C)[C@@H](C)O` has an IC50 [2] of 0.011 µM, an IC50 [4] of 9.12 µM and an IC50 [5] of 2.78 µM. The IC50 [6] was 1.08 µM and the IC50 [7] was 4.28 µM.

For `CC(C)[C@H](N)C(=O)NCC(=O)N[C@@H](CCC(=O)O)C(=O)N[C@@H](CCCNC(=N)N)C(=O)N[C@H]1CSSC[C@@H]2NC(=O)[C@H](Cc3c[nH]c4ccccc34)NC(=O)[C@H](CCCNC(=N)N)NC(=O)CNC(=O)[C@@H]3CSSC[C@@H](C(N)=O)NC(=O)[C@H](CSSC[C@H](NC1=O)C(=O)N[C@@H](CCCCN)C(=O)N[C@@H](CC(N)=O)C(=O)NCC(=O)N[C@@H](CCCCN)C(=O)N[C@@H](CCCNC(=N)N)C(=O)NCC(=O)N3)NC(=O)[C@H](CCCNC(=N)N)NC(=O)[C@H](CO)NC(=O)[C@H](Cc1cnc[nH]1)NC(=O)[C@H](CC(=O)O)NC(=O)[C@H](CCCNC(=N)N)NC2=O`, the IC50 [8] was 0.2 µM.

`CC(C)[C@H](N)C(=O)NCC(=O)N[C@@H](CCC(=O)O)C(=O)N[C@@H](CCCNC(=N)N)C(=O)N[C@@H](C)C(=O)N[C@H]1CSSC[C@@H]2NC(=O)[C@H](CCCNC(=N)N)NC(=O)[C@H](CO)NC(=O)[C@H](Cc3cnc[nH]3)NC(=O)[C@H](CC(=O)O)NC(=O)[C@H](CCCNC(=N)N)NC(=O)[C@H](C)NC(=O)[C@H](Cc3c[nH]c4ccccc34)NC(=O)[C@H](CCCNC(=N)N)NC(=O)CNC(=O)[C@H](CSSC[C@@H](C(N)=O)NC2=O)NC(=O)CNC(=O)[C@H](CCCNC(=N)N)NC(=O)[C@H](CCCCN)NC(=O)CNC(=O)[C@H](CC(N)=O)NC(=O)[C@H](CCCCN)NC1=O` gave an IC50 [8] of 15.7 µM.
